From article PMC10567917 (Archives of Toxicology, 2023)

Key:
[1] = system: primary mouse hepatocytes
[2] = system: primary rat hepatocytes; details: for Formation rate: rat, calculated from medium samples, linear time points
[3] = system: primary human hepatocytes; details: for concentration in culture medium: human hepatocytes; for Formation rate: human, calculated from medium samples, linear time points

## COc1cc2c(c3oc(=O)c4c(c13)CC[C@@H]4O)[C@@H]1C=CO[C@@H]1O2
[1]; mouse hepatocytes, 10 µM AFB1, within 2 h
  highest concentration in culture medium: 1 nM
[1]; mouse, 10 µM AFB1 (20 nmol), calculated from medium samples, linear time points
  Formation rate: 1 163 pmol/h
[2]; rat hepatocytes, 1 µM and 10 µM AFB1, up to 24 h
  detection in culture medium: detected only in trace amounts
[2]; 1 µM AFB1 (2 nmol)
  Formation rate: 306 pmol/h
[2]; 10 µM AFB1 (20 nmol)
  Formation rate: 6 702 pmol/h
[3]; 1 µM AFB1, within the first 4 h, constant up to 24 h
  concentration in culture medium: 0.002 µM
[3]; 10 µM AFB1, reached in the first 4 h, then constant until 24 h
  concentration in culture medium: 0.05 µM
[3]; 1 µM AFB1 (2 nmol)
  Formation rate: 1 109 pmol/h
[3]; 10 µM AFB1 (20 nmol)
  Formation rate: 18 923 pmol/h

Like-named read-outs stand apart in the source and are kept apart here.
